Values from PubChem BioAssay AID1224833 (University of Georgia, 2016)

Screen: 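Host factors restraining rotavirus as candidate antiviral genes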 (primary screen)
Cell system: monkey MA104 kidney cells
Knock-down reagent: siRNA pool against human genes, 50 nM
Time to read-out: 48 h knock-down before infection; read 24 h after infection
Challenge: infection with rotavirus strain RV3 two days after transfection; infectious dose for this stage not given
Detection: 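z-score of rotavirus antigen signal per well, from a fluorescent immunoassay, relative to non-targeting control wells on the same plate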
Direction: z-score vs non-targeting control: higher = more rotavirus replication than with non-targeting control
Active means: In these data the active calls have z-score vs non-targeting control at about -1 or lower, or at about 1 or higher
Calls: active = z-score beyond 1 either way; inactive = z-score within 1 of zero
Here is an unselected part of about 12,000 deposited reagents. Over the whole deposit, about 5,600 (46%) were called active. 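Active calls cover z-scores past 1 in both directions, so they include lowered as well as raised rotavirus replication.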

| gene knocked down | z-score vs non-targeting control | activity call |
| --- | --- | --- |
| SLC5A10 (GeneID 125206) | -0.843 | inactive |
| PCDHB14 (GeneID 56122) | -1.18 | active |
| SNAI2 (GeneID 6591) | 0.633 | inactive |
| H3-4 (GeneID 8290) | -0.415 | inactive |
| TMEM174 (GeneID 134288) | 0.593 | inactive |
| SULT1B1 (GeneID 27284) | -0.862 | inactive |
| ELOVL1 (GeneID 64834) | -0.484 | inactive |
| LRRC20 (GeneID 55222) | -0.475 | inactive |
| PRDX6 (GeneID 9588) | 1.21 | active |
| PLXNA3 (GeneID 55558) | 1.34 | active |
| TEDC1 (GeneID 283643) | -0.8 | inactive |
| BET1 (GeneID 10282) | -1.08 | active |
| STIM1 (GeneID 6786) | -0.153 | inactive |
| CLEC5A (GeneID 23601) | -0.854 | inactive |
| SLC35G1 (GeneID 159371) | -1.75 | active |
| WNT5B (GeneID 81029) | -0.876 | inactive |
| PPHLN1 (GeneID 51535) | -2.19 | active |
| OPN1SW (GeneID 611) | -1.23 | active |
| OTUB2 (GeneID 78990) | 1.29 | active |
| SPATA7 (GeneID 55812) | -1 | active |
| MED7 (GeneID 9443) | -1.28 | active |
| TCP11 (GeneID 6954) | 0.602 | inactive |
| LGI3 (GeneID 203190) | 1.25 | active |
| AJUBA (GeneID 84962) | -1.28 | active |
| LRRC37A3 (GeneID 374819) | 0.945 | inactive |
| SLC17A4 (GeneID 10050) | 1.33 | active |
| PLA2G10 (GeneID 8399) | 0.881 | inactive |
| ZBTB35 (GeneID 7690) | -0.223 | inactive |
| ISOC1 (GeneID 51015) | -0.891 | inactive |
| SLAMF7 (GeneID 57823) | -1.55 | active |
| TAS2R46 (GeneID 259292) | -1.47 | active |
| ZMYM4 (GeneID 9202) | 0.484 | inactive |
| COL4A5 (GeneID 1287) | -0.948 | inactive |
| RNASEH2C (GeneID 84153) | -2.56 | active |
| MRPS9 (GeneID 64965) | -0.997 | inactive |
| CRABP1 (GeneID 1381) | 0.758 | inactive |
| ZNF112 (GeneID 7771) | -0.0217 | inactive |
| CYP2C9 (GeneID 1559) | -1.96 | active |
| RRP9 (GeneID 9136) | 0.419 | inactive |
| SCLT1 (GeneID 132320) | 1.87 | active |
| ZBTB42 (GeneID 100128927) | -0.571 | inactive |
| GHSR (GeneID 2693) | -1.8 | active |
| INTU (GeneID 27152) | 2.83 | active |
| CEBPA (GeneID 1050) | 0.721 | inactive |
| DDX49 (GeneID 54555) | -2.04 | active |
| VAPA (GeneID 9218) | -1.25 | active |
| RCOR3 (GeneID 55758) | -0.758 | inactive |
| SMARCD2 (GeneID 6603) | -0.984 | inactive |
| VAX1 (GeneID 11023) | 0.204 | inactive |
| OPN1MW2 (GeneID 728458) | 0.946 | inactive |
| CD82 (GeneID 3732) | -0.346 | inactive |
| CEP63 (GeneID 80254) | -2.43 | active |
| TARBP2 (GeneID 6895) | -0.638 | inactive |
| MRPS25 (GeneID 64432) | -0.808 | inactive |
| CTNND2 (GeneID 1501) | -0.707 | inactive |
| CDH7 (GeneID 1005) | -1.03 | active |
| SLC52A2 (GeneID 79581) | 1.77 | active |
| RBM23 (GeneID 55147) | -0.29 | inactive |
| JDP2 (GeneID 122953) | 3.3 | active |
| NEFL (GeneID 4747) | 0.943 | inactive |
| OR8G1 (GeneID 26494) | -0.359 | inactive |
| CMAS (GeneID 55907) | -1.78 | active |
| GNPNAT1 (GeneID 64841) | 2.19 | active |
| SMPX (GeneID 23676) | -0.415 | inactive |
| SNX5 (GeneID 27131) | -2.54 | active |
| FBN3 (GeneID 84467) | -0.815 | inactive |
| MSH5 (GeneID 4439) | 0.716 | inactive |
| NMRK2 (GeneID 27231) | -0.64 | inactive |
| GSTM5 (GeneID 2949) | -0.756 | inactive |
| ST6GALNAC2 (GeneID 10610) | -0.571 | inactive |
| SNHG32 (GeneID 50854) | -0.815 | inactive |
| TBC1D7 (GeneID 51256) | 0.973 | inactive |
| RHBDF1 (GeneID 64285) | -0.312 | inactive |
| BCLAF1 (GeneID 9774) | -1.37 | active |
| AHRR (GeneID 57491) | 0.237 | inactive |
| GET4 (GeneID 51608) | -1.21 | active |
| PILRA (GeneID 29992) | 0.404 | inactive |
| TMEM134 (GeneID 80194) | -0.632 | inactive |
| ZSCAN23 (GeneID 222696) | 1.42 | active |
| SUPT20H (GeneID 55578) | -1.32 | active |
| GRB2 (GeneID 2885) | 0.734 | inactive |
| PCBP2 (GeneID 5094) | -1.37 | active |
| OR2T29 (GeneID 343563) | 0.0209 | inactive |
| GNAO1 (GeneID 2775) | -0.365 | inactive |
| ZNF324 (GeneID 25799) | 0.521 | inactive |
| NRXN2 (GeneID 9379) | -0.636 | inactive |
| GPIHBP1 (GeneID 338328) | -2.86 | active |
| KDM6A (GeneID 7403) | -0.198 | inactive |

Looked up above:
SUPT20H (GeneID 55578), activity call = active
For “activity call”, LRRC37A3 (GeneID 374819) is entered as inactive
Result for DDX49 (GeneID 54555) under “activity call”: active
CEP63 (GeneID 80254), z-score vs non-targeting control → -2.43
Under “activity call”, RCOR3 (GeneID 55758) reads inactive
RHBDF1 (GeneID 64285), activity call → inactive

More results:
| gene knocked down | z-score vs non-targeting control | activity call |
| --- | --- | --- |
| ZNF804B (GeneID 219578) | 0.488 | inactive |
| MAP6 (GeneID 4135) | 0.1 | inactive |
| CEMIP2 (GeneID 23670) | 1.65 | active |
| NEXN (GeneID 91624) | 0.62 | inactive |
| VPREB3 (GeneID 29802) | -0.717 | inactive |
| S100A11 (GeneID 6282) | -0.0359 | inactive |
| STRIP2 (GeneID 57464) | -0.653 | inactive |
| OVOL1 (GeneID 5017) | 0.759 | inactive |
| R3HDM1 (GeneID 23518) | 0.235 | inactive |
| MED13 (GeneID 9969) | -0.552 | inactive |
| KATNAL1 (GeneID 84056) | 1.68 | active |
| ZNF157 (GeneID 7712) | -0.168 | inactive |
| RPS23 (GeneID 6228) | -1.89 | active |
| BAD (GeneID 572) | -1.2 | active |
| SSUH2 (GeneID 51066) | -1.24 | active |
| SNCAIP (GeneID 9627) | 0.756 | inactive |
| XPO7 (GeneID 23039) | 1.06 | active |
| BPY2C (GeneID 442868) | -1.18 | active |
| KRT36 (GeneID 8689) | 1.77 | active |
| IL7R (GeneID 3575) | -0.986 | inactive |
| TAC1 (GeneID 6863) | -1.82 | active |
| MAMLD1 (GeneID 10046) | -1.9 | active |
| DIS3 (GeneID 22894) | -1.09 | active |
| AAR2 (GeneID 25980) | -0.445 | inactive |
| ADAT2 (GeneID 134637) | -1.26 | active |
| CTNNA2 (GeneID 1496) | -1.29 | active |
| ZNF771 (GeneID 51333) | -2.16 | active |
| SERTAD4 (GeneID 56256) | -1.15 | active |
| PCDHB16 (GeneID 57717) | -0.856 | inactive |
| WDFY2 (GeneID 115825) | -0.275 | inactive |
| MYL2 (GeneID 4633) | -1.46 | active |
| CHMP1A (GeneID 5119) | 0.719 | inactive |
| INVS (GeneID 27130) | 0.914 | inactive |
| SPN (GeneID 6693) | 0.616 | inactive |
| NRL (GeneID 4901) | -2.49 | active |
| GRB7 (GeneID 2886) | -0.69 | inactive |
| TYW3 (GeneID 127253) | -1.7 | active |
| COX18 (GeneID 285521) | 1.53 | active |
| FRYL (GeneID 285527) | -1.28 | active |
| GNS (GeneID 2799) | -1.74 | active |
| PRM2 (GeneID 5620) | 1.66 | active |
| FAM216B (GeneID 144809) | -0.717 | inactive |
| RAB32 (GeneID 10981) | -0.89 | inactive |
| ZNF280D (GeneID 54816) | -2.47 | active |
| PCDHB8 (GeneID 56128) | -0.833 | inactive |
| MCM2 (GeneID 4171) | -1.81 | active |
| SLC39A12 (GeneID 221074) | 1.36 | active |
| ZC3HAV1 (GeneID 56829) | -1.23 | active |
| P4HA3 (GeneID 283208) | -0.132 | inactive |
| HSPA12A (GeneID 259217) | 0.859 | inactive |
| ODAD2 (GeneID 55130) | 1.04 | active |
| FOXP3 (GeneID 50943) | 0.604 | inactive |
